This is a selection; strong and weak results do not stand in their true shares. Activity calls are given as the source filed them. Cut-off read from the data, not from the text of the source: active = max response mostly above about 13% (no sharp cut-off); inactive = mostly below about 14%.
Assay: Cycloheximide Counterscreen for Small Molecule Inhibitors of Shiga Toxin; note: read at 38.3 µM for the half of the compounds with a filed dose; 0% is about no effect
Conditions: cell reporter, cycloheximide protein synthesis inhibition counterscreen; stronger effect = higher value

| SMILES | max response |
| --- | --- |
| Cc1ccc(OP(=O)(Nc2ccccn2)Oc2ccc(C)cc2)cc1 | inactive: -1.27% |
| COC(=O)c1cc2c(s1)N=C(c1ccccc1)N(C)P2(=O)N1CCOCC1 (stereo unspecified) | inactive: -2.55% |
| Cc1ccc(NP(=O)(Oc2cccc(C)c2)Oc2cccc(C)c2)nc1 | inactive: -0.0421% |
| CCOC(=O)NC(Sc1ccccc1)C(Cl)(Cl)Cl (stereo unspecified) | inactive: 15% |
| c1ccc(-c2nn[nH]n2)c(-c2nn[nH]n2)c1 | inactive: -2.43% |
| O=C(NC1CCS(=O)(=O)C1)NP(=S)(Oc1ccccc1)Oc1ccccc1 (stereo unspecified) | inactive: 1.16% |
| CC(=O)Nc1ccc(Oc2c([N+](=O)[O-])cc([N+](=O)[O-])cc2[N+](=O)[O-])cc1 | inactive: 0.775% |
| CC(=O)Nc1ccc([As](=O)(O)O)c(O)c1 | inactive: 11% |
| C[C@H]1OP(=O)(Oc2ccccc2)C[C@@H]2O[C@@H]21 (stereo partly specified) | inactive: -10.4% |
| C[C@@H]1C=CCP(=O)(Oc2ccccc2)O1 (stereo partly specified) | inactive: -7.91% |
| CC(=O)c1ccc(N2CC2c2ccncc2)cc1 (stereo unspecified) | inactive: -2.95% |
| CC(C)(C)C(=O)NC(Sc1ccccc1)C(Cl)(Cl)Cl (stereo unspecified) | inactive: 2.82% |
| CCOc1ccc(C2=NCC(CBr)S2)cc1 (stereo unspecified) | inactive: 9.79% |
| O=P1(Nc2nc3ccc(Cl)cc3s2)COc2ccccc2O1 (stereo unspecified) | inactive: 16.6% |
| CCC(C)(OOC(C)(C)C)OOC(C)(C)C | inactive: -3.69% |
| CC(C)C(=O)NC(Sc1ccccc1)C(Cl)(Cl)Cl (stereo unspecified) | inactive: -4.68% |
| O=P(Nc1nccs1)(c1ccccc1)c1ccccc1 | inactive: 0.83% |
| O=C(OC1CN2CCC1CC2)c1cccc(Cl)c1 (stereo unspecified) | inactive: -3.31% |
| Nc1ccc([As](=O)(O)c2ccc([N+](=O)[O-])cc2)cc1 | inactive: -2.97% |
| O=[As](O)(c1ccccc1)c1ccc(O)cc1 | inactive: 1.16% |
| O=[N+]([O-])c1ccc(O)c(/C=N/Nc2ccc([N+](=O)[O-])cc2[N+](=O)[O-])c1 | inactive: 1.07% |
| CC(=O)NC(SC(=S)N(C)C)C(Cl)(Cl)Cl (stereo unspecified) | inactive: 11.5% |
| C[C@H]1OP(=O)(Oc2ccccc2)[C@H](O)[C@H](O)[C@H]1N=[N+]=[N-] (stereo partly specified) | inactive: -4.4% |
| O=P(Nc1nc2ccccc2s1)(c1ccccc1)c1ccccc1 | active: 14.5% |
| O=P(Nc1ccccn1)(c1ccc(Br)cc1)c1ccc(Br)cc1 | inactive: 0.149% |
| CN(C)C1(CNC(=O)c2ccc(Cl)c(S(N)(=O)=O)c2)CCCCC1 | inactive: -2.33% |
